Tests used:
[1] = target: HC110-R receptor with a C-terminal Myc/His tag (Haemonchus contortus); test: cell-based or functional assay
[2] = target: HC110-R-GFP fusion protein (HC110-R with C-terminal EGFP tag) (Haemonchus contortus; Aequorea victoria) [GFP: P42212]; test: cell-based or functional assay

alpha-latrotoxin (from UniProt P23631 21-1199) (ligand)
Ca2+ influx on addition of 75 nM α-LTX (Ca2+ imaging, HEK-293 cells) [1]: 296 nM
increase in [Ca2+]i 2 min after 25 nM α-LTX (Ca2+ imaging, HEK-293 cells) [1]: 130 nM
first increase in [Ca2+]i at 120 nM α-LTX (Ca2+ imaging, HEK-293 cells) [2]: 135 nM
second increase in [Ca2+]i at 120 nM α-LTX (Ca2+ imaging, HEK-293 cells) [2]: 50 nM

Source: patent US20050037436A1, “Test systems and the use thereof for identifying and characterizing compounds” (priority 2000, published 2005)
